US7968304B2, “Determining and reducing immunoresistance to a botulinum toxin therapy using botulinum toxin B peptides” (dated 2011)

Legend:
[1] = system: mouse anti-BoNT/B antibodies; assay: BoNT/B peptide binding assay (solid-phase radioimmunoassay) with mouse antisera; conditions: outbred ICR mouse antisera 1:1000 and 1:2000 (vol/vol); FIG. 3; b343 lists peptides in decreasing amounts
[2] = system: horse anti-BoNT/B antibodies; assay: BoNT/B peptide binding assay (solid-phase radioimmunoassay) with horse antisera; conditions: horse antisera 1:500 and 1:1000 (vol/vol); FIG. 2; b337 lists peptides in decreasing amounts
[3] = system: human anti-pentavalent botulinum toxoid antibodies; assay: BoNT/B peptide binding assay (solid-phase radioimmunoassay, 125I-Protein A) with human antisera; conditions: human IgG fraction 1:1000 and 1:2000 (vol/vol); FIG. 1; b330 lists peptides in decreasing order

Row | Substance | binding of mouse anti-BoNT/B antibodies, in words [1] | binding of horse anti-BoNT/B antibodies, in words [2] | other results
1 | C S V S Y L M K K M I P L A V E K L L | recognized | – | –
2 | D I R E V I A N G E I I F K L D G D I | Antibodies were bound | – | –
3 | E E R Y K I Q S Y S E Y L K D F W G N | Antibodies were bound | – | –
4 | E Y D E Q P T Y S C Q L L F K K D E E | – | Antibodies were bound | –
5 | F L L E S Y I D N K N K I I K T I D N | – | – | binding of human anti-pentavalent botulinum toxoid antibodies, in words [3]: bound low amounts of antibodies
6 | G E K F I I R R K S N S Q S I N D D I | moderate-to-high amounts | – | –
7 | G V E L N D K N Q F K L T S S A N S K | – | Antibodies were bound | –
8 | I L I E M F N K Y N S E I L N N I I L | Antibodies were bound | – | –
9 | K D S P V G E I L T R S K Y N Q N S K | – | Antibodies were bound | –
10 | KRKPYNLKLGCNWQFIPKDEGWTE | – | recognized | –
11 | K V Y S F F S M D Y I K T A N K V V E | – | – | binding of human anti-pentavalent botulinum toxoid antibodies, in words [3]: bound low amounts of antibodies
12 | N K V V E A G L F A G W V K Q I V N D | – | – | binding of human anti-pentavalent botulinum toxoid antibodies, in words [3]: bound low amounts of antibodies
13 | N N I I L N L R Y K D N N L I D L S G | Antibodies were bound | – | –
14 | S A E Y E K S K V N K Y L K T I M P F | – | Antibodies were bound | –
15 | V E K L L D F D N T L K K N L L N Y I | – | Antibodies were bound | –
16 | V N T Q F Y T I K E G M Y K A L N Y Q | – | Antibodies were bound | –
17 | Y F S I F N T E L S Q S N I E E R Y K | – | recognized | –
